Measured values from several laboratories, pooled; numbers as filed in NIAID ChemDB.

All rows: toxicity to cultured cells; endpoint: CC50

Blank or dashed fields: not listed here.

{"structure": "COc1nsc(-c2ccccc2)c1C#N", "cell line": "L929", "value": "25 µM"}
{"structure": "CC(C)C[C@@H]1NC(=O)[C@H](Cc2c[nH]c3ccccc23)NC(=O)[C@@H](CCCCN)NC(=O)[C@H](CC(N)=O)NC(=O)[C@H](C(C)C)NC(=O)[C@@H]2CCCN2C1=O", "read by": "MTT", "cell line": "Colorectal carcinoma", "value": ">30 µM"}
{"structure": "COC(=O)N[C@H](C(=O)N[C@H](CCC[C@@H](CO)N(CCC(C)C)S(=O)(=O)c1ccc(N)cc1)C(C)C)C(c1ccccc1)c1ccccc1", "read by": "microscopy", "cell line": "T lymphoid cells", "value": ">10 µM"}
{"structure": "CCCCN1C(=O)CS/C1=N/N=C1\\C(=O)Nc2ccc([N+](=O)[O-])cc21", "cell line": "MDBK", "value": ">50 µg/mL"}
{"structure": "C=CCCN(Cc1cc(OC)cc(OC)c1)C(=O)CC(C)=O", "cell line": "HepG2", "value": "<7.5 µM"}
{"structure": "N#Cc1c(Cl)nsc1Cl", "cell line": "L929", "value": "4 µM"}
{"structure": "Cc1ccc(-n2ncc3c(Nc4cccc(F)c4)ncnc32)c(C)c1", "cell line": "HUH 9B", "value": "46 µM"}
{"structure": "CCOC(=O)CCCCCOc1cccc(CN(C(=O)c2ccc(-c3cccc(OCC)c3)cc2)C(C)C)c1", "cell line": "RAJI", "value": ">20 µM"}
{"structure": "Nc1nc(-c2ccc(NC(=O)CCNCC3CCCCC3)cc2)cs1", "cell line": "HS68", "value": "<6 µM"}
{"structure": "CSc1nsc(-c2ccc[n+](C)c2)c1C#N", "cell line": "L929", "value": "1250 µM"}
{"structure": "CC(C)N(Cc1cccc(OCCCCCC(=O)OC(=O)O)c1)C(=O)c1ccc(-c2c[nH]c3ccccc23)cc1", "cell line": "HEK 293", "value": ">20 µM"}
{"structure": "Nc1nc(-c2ccc(NC(=O)CN(CC3CCCCC3)C(=O)C3CCCC3)cc2)cs1", "cell line": "HS68", "value": ">21 µM"}
{"structure": "CCCCc1ccc(Nc2ncnc3c2cnn3-c2ccccc2)cc1", "cell line": "HUH 9B", "value": "22 µM"}
{"structure": "CN(C)c1ccc2c(c1)Cc1cc(NC(N)=S)ccc1-2", "read by": "MTS", "cell line": "Ava5-EG(delta4AB)SEAP", "value": ">1 µM"}
{"structure": "C1CN(CC2CO2)CC[N+]2(C1)CC[N+]1(CCCN(CC3CO3)CC1)CC2", "cell line": "L929", "value": "312.9 µg/mL"}
{"structure": "CSc1nsc(-c2ccncc2)c1C#N", "cell line": "HEP-2", "value": "2.5 µM"}
{"structure": "CC[C@@H](CCC[C@@H](CO)N(CC(C)C)S(=O)(=O)c1ccc(CO)cc1)NC(=O)[C@@H](NC(=O)OC)C(c1ccccc1)c1ccccc1", "read by": "microscopy", "cell line": "T lymphoid cells", "value": ">10 µM"}
{"structure": "FC(F)(F)c1ccccc1-n1ncc2c(NCCc3c[nH]c4ccccc34)ncnc21", "cell line": "HUH 9B", "value": "32 µM"}
{"structure": "O=[N+]([O-])c1ccc2[nH]c(O)c(N=NC(=S)Nc3ccc(Br)cc3)c2c1", "cell line": "MDBK", "value": "17 µg/mL"}
{"structure": "COC(=O)NC(C(=O)N[C@@H](C)CCC[C@@H](CO)N(C(C)C)S(=O)(=O)c1ccc(CO)cc1)C(c1cccc(F)c1)c1cccc(F)c1", "read by": "microscopy", "cell line": "T lymphoid cells", "value": ">10 µM"}
{"structure": "S=C(Nc1cccc(OCc2ccccc2)c1)N1CCN(CCCc2ccccc2)C1=S", "read by": "MTS", "cell line": "Ava5-EG(delta4AB)SEAP", "value": ">1 µM"}
{"structure": "CC(C)C[C@@H]1NC(=O)[C@@H](CC(C)C)NC(=O)[C@H](Cc2c[nH]c3ccccc23)NC(=O)CNC(=O)[C@H](CC(N)=O)NC(=O)[C@@H](C(C)C)NC1=O", "read by": "MTT", "cell line": "Colorectal carcinoma", "value": ">30 µM"}
{"structure": "CNC(=S)Nc1cccc(OCCCCCc2ccccc2)c1", "read by": "MTS", "cell line": "Ava5-EG(delta4AB)SEAP", "value": ">1 µM"}
{"structure": "CCOC(=O)CCCCCOc1cccc(CN(C(=O)c2ccc(-c3ccsc3)cc2)C(C)C)c1", "cell line": "BJ", "value": ">20 µM"}
{"structure": "CC(C)C[C@@H]1NC(=O)[C@H](Cc2c[nH]c3ccccc23)NC(=O)[C@@H](CO)NC(=O)[C@H](CC(N)=O)NC(=O)[C@H](C(C)C)NC(=O)[C@@H](CC(C)C)NC1=O", "read by": "MTT", "cell line": "Colorectal carcinoma", "value": ">30 µM"}
{"structure": "Nc1nc(=O)n([C@H]2C[C@H](O)[C@@H](CO)O2)cc1/C=C/Cl", "read by": "cell count", "cell line": "P3HR-1", "value": "490 µM"}
{"structure": "CC[C@@H](CCC[C@@H](CO)N(CC(C)C)S(=O)(=O)c1ccc(CO)cc1)NC(=O)[C@@H](N)C(c1ccccc1)c1ccccc1", "read by": "microscopy", "cell line": "T lymphoid cells", "value": ">10 µM"}
{"structure": "CSc1nsc(-c2c(Cl)cccc2Cl)c1C#N", "cell line": "L929", "value": "5 µM"}
{"structure": "Nc1nc(=O)n([C@@H]2O[C@H](CO)[C@@H](O)[C@@H]2F)cc1I", "read by": "cell count", "cell line": "OMK", "value": "≤49 µM"}
{"structure": "C=CCCC1=NCC(O[Si](C)(C)C(C)(C)C)c2cc(OC)c(OC)cc21", "cell line": "RAJI", "value": "<7.5 µM"}
{"structure": "S=C(Nc1cccc(OCCCCCOc2ccc(-c3ccccc3)cc2)c1)N1CCOCC1", "read by": "MTS", "cell line": "Ava5-EG(delta4AB)SEAP", "value": ">1 µM"}
{"structure": "CSc1nc(Cl)c(C=O)c(N2CC[N+]3(CC2)CC[N+]2(CCN(c4nc(SC)nc(Cl)c4C=O)CC2)CC3)n1", "cell line": "L929", "value": ">55.2 µg/mL"}
{"structure": "CN(C)CCNC(=S)Nc1ccc2c(c1)Cc1cc(Br)ccc1-2", "read by": "MTS", "cell line": "Ava5-EG(delta4AB)SEAP", "value": ">1 µM"}
{"structure": "COC(=O)N[C@H](C(=O)N[C@H](CCC[C@@H](CO)N(CC(C)C)S(=O)(=O)c1ccc(N)cc1)C(C)C)C(c1ccccc1)c1ccccc1", "read by": "microscopy", "cell line": "T lymphoid cells", "value": "10 µM"}
{"structure": "Nc1nc(-c2ccc(NC(=O)CNCc3ccccn3)cc2)cs1", "cell line": "HS68", "value": ">84 µM"}
{"structure": "Nc1nc2c(ncn2COC(CO)CO)c(=O)[nH]1", "read by": "cell count", "cell line": "OMK", "value": ">900 µM"}
{"structure": "CCCCNC(=S)Nc1ccc2c(c1)Cc1cc(Br)ccc1-2", "read by": "MTS", "cell line": "Ava5-EG(delta4AB)SEAP", "value": ">1 µM"}
{"structure": "O=C1Nc2ccc([N+](=O)[O-])cc2/C1=N/N=C1/SCC(=O)N1c1ccc(F)cc1", "cell line": "MDBK", "value": "9 µg/mL"}
{"structure": "Nc1nc(-c2ccc(NC(=O)NCc3ccccc3)cc2)cs1", "cell line": "HS68", "value": "<45 µM"}
{"structure": "NC(=S)Nc1ccc2c(c1)C(=O)c1cc(Br)ccc1-2", "read by": "MTS", "cell line": "Ava5-EG(delta4AB)SEAP", "value": ">1 µM"}
{"structure": "O=c1[nH]c(=O)n([C@H]2C[C@H](O)[C@@H](CO)O2)cc1/C=C/Br", "read by": "cell count", "cell line": "RF", "value": "411 µM"}
{"structure": "CCn1c(-c2ccccc2)c(C)c(=O)c2cc(C(C)C)ccc21", "read by": "MTT", "cell line": "HELA-OHIO", "value": "11 µg/mL"}
{"structure": "NNC(=O)c1ccncc1", "read by": "MTT", "cell line": "Lung carcinoma cells", "value": ">30 µM"}
{"structure": "Cc1cc2c(cc1OCC(C)C)c(=O)c(C)c(-c1ccccc1)n2C", "read by": "MTT", "cell line": "HeLa S3", "value": ">5 µg/mL"}
{"structure": "CCOC(=O)CCCCCOc1cccc(CNC(C)C)c1", "cell line": "BJ", "value": ">20 µM"}
{"structure": "Cc1ccc(-n2ncc3c(Nc4cccc(C(F)(F)F)c4)ncnc32)c(C)c1", "cell line": "HUH 9B", "value": "36 µM"}
{"structure": "CCCC(CCC)N(CC(=O)Nc1ccc(-c2csc(N)n2)cc1)C(=O)C1CCCCC1", "cell line": "HS68", "value": ">7 µM"}
{"structure": "CSc1nsc(C)c1C#N", "cell line": "HEP-2", "value": "100 µM"}
{"structure": "CCCN(Cc1cccc(OCCCCCC(=O)OCC)c1)C(=O)c1ccc(-c2ccc3c(c2)OCO3)cc1", "cell line": "HEK 293", "value": ">20 µM"}
{"structure": "C[C@H](NC(=O)Nc1ccc(-c2csc(N)n2)cc1)c1ccccc1", "cell line": "HS68", "value": "<74 µM"}
{"structure": "CCn1c(-c2ccccc2)c(C)c(=O)c2cc(-c3ccccc3)ccc21", "read by": "MTT", "cell line": "HeLa S3", "value": ">2.5 µg/mL"}
{"structure": "CC[C@@H](CCC[C@@H](CO)N(CC(C)C)S(=O)(=O)c1ccc(CO)cc1)NC(=O)[C@@H](NC)C(c1ccccc1)c1ccccc1", "read by": "microscopy", "cell line": "T lymphoid cells", "value": ">10 µM"}
{"structure": "Nc1c(N2CC[N+]3(CC2)CC[N+]2(CCN(c4nc[nH]c(=O)c4N)CC2)CC3)nc[nH]c1=O", "cell line": "L929", "value": ">82.4 µg/mL"}
{"structure": "CC(C)C[C@@H]1NC(=O)[C@H](Cc2c[nH]c3ccccc23)NC(=O)[C@H](CCCCN)NC(=O)[C@H](CC(N)=O)NC(=O)[C@H](C(C)C)NC(=O)[C@@H](CC(C)C)NC1=O", "read by": "MTT", "cell line": "Colorectal carcinoma", "value": ">30 µM"}
{"structure": "CCn1c(-c2ccccc2)c(C)c(=O)c2cc(N3CCOCC3)ccc21", "read by": "MTT", "cell line": "HeLa S3", "value": ">50 µg/mL"}
{"structure": "COC(=O)N[C@H](C(=O)N[C@H](C)CCC[C@@H](CO)N(CCC(C)C)S(=O)(=O)c1ccc(CO)cc1)C(c1ccccc1)c1ccccc1", "read by": "microscopy", "cell line": "T lymphoid cells", "value": ">10 µM"}
{"structure": "COc1cc2c(=O)c(C)c(-c3ccccc3)n(C)c2cc1C(C)C", "read by": "MTT", "cell line": "HELA-OHIO", "value": ">10 µg/mL"}
{"structure": "O=[N+]([O-])c1cncnc1N1CC[N+]2(CC1)CC[N+]1(CCN(c3ncncc3[N+](=O)[O-])CC1)CC2", "cell line": "L929", "value": ">369.4 µg/mL"}

7 of the rows above, restated:

structure | read by | cell line | value
CSc1nsc(-c2ccncc2)c1C#N |  | HEP-2 | 2.5 µM
C=CCCN(Cc1cc(OC)cc(OC)c1)C(=O)CC(C)=O |  | HepG2 | <7.5 µM
CSc1nsc(C)c1C#N |  | HEP-2 | 100 µM
Cc1ccc(-n2ncc3c(Nc4cccc(F)c4)ncnc32)c(C)c1 |  | HUH 9B | 46 µM
CNC(=S)Nc1cccc(OCCCCCc2ccccc2)c1 | MTS | Ava5-EG(delta4AB)SEAP | >1 µM
FC(F)(F)c1ccccc1-n1ncc2c(NCCc3c[nH]c4ccccc34)ncnc21 |  | HUH 9B | 32 µM
NNC(=O)c1ccncc1 | MTT | Lung carcinoma cells | >30 µM

Lines come from different laboratories, so protocols vary. CCn is the concentration with n% toxicity to the cells.